How the values were obtained:
[1] = tested on: CFP-V12-YFP
[2] = tested on: CFP-V34-YFP

Substance: Recombinant CHIKV nsP2 protease
- cleavage of CFP/YFP substrates, SDS-PAGE (FIG. 2F) [1]: the CHIKV nsP2 protease cut only Old World substrates
- cleavage of CFP/YFP substrates, SDS-PAGE (FIG. 2F) [2]: the CHIKV nsP2 protease cut only Old World substrates

Reference: patent US20210389324
